Anti-infective test results gathered from many reports (values: NIAID ChemDB through PubChem).

All rows: cytotoxicity tests; cells: DAUDI; measure: CC50

Neighbouring rows are from separate reports.

{"SMILES": "Nc1nc(Cl)nc2c1ncn2/C=C1\\CC1CO", "result": ">50 µM"}
{"SMILES": "Nc1nc2c(ncn2[C@H]2C[C@@]23C[C@@H]3CO)c(=O)[nH]1", "result": ">199 µM"}
{"SMILES": "Nc1nc2c(ncn2/C=C2/C[C@@H]2CO)c(=O)[nH]1", "result": ">214 µM"}
{"SMILES": "Cc1cn([C@@H]2C[C@@H](O)[C@H](CO)O2)c(=O)[nH]c1=O", "result": ">50 µM"}
{"SMILES": "Nc1[nH]c(=O)nc2c1ncn2/C=C1/C[C@@H]1CO", "result": ">214 µM"}
{"SMILES": "COC(=O)[C@H](C)NP(=O)(OC[C@H]1C/C1=C/n1cnc2c(N)nc(N)nc21)Oc1ccccc1", "result": "26 µM"}
{"SMILES": "COC(=O)[C@H](C)NP(=O)(OC[C@@H]1C[C@]12C[C@@H]2n1cnc2c(N)ncnc21)Oc1ccccc1", "result": "7.6 µM"}
{"SMILES": "COC(=O)[C@H](C)NP(=O)(OC[C@H]1C/C1=C/n1cnc2c(=O)[nH]c(N)nc21)Oc1ccccc1", "result": ">103 µM"}
{"SMILES": "Nc1ncnc2c1ncn2[C@@H]1C[C@@H](O)[C@H](CO)O1", "result": "23.1 µM"}
{"SMILES": "Nc1nc2c(ncn2[C@H]2C[C@]23C[C@@H]3CO)c(=O)[nH]1", "result": ">199 µM"}
{"SMILES": "Nc1ncnc2c1ncn2/C=C1/C[C@H]1CO", "result": "124 µM"}
{"SMILES": "COC(=O)[C@H](C)NP(=O)(OC[C@@H]1C[C@]12C[C@@H]2n1cnc2c(N)ncnc21)Oc1ccccc1", "result": "7.6 µM"}
{"SMILES": "Nc1nc(NC2CC2)c2ncn(/C=C3/C[C@@H]3CO)c2n1", "result": "13 µM"}
{"SMILES": "COC(=O)[C@H](C)NP(=O)(OC[C@H]1C/C1=C/n1cnc2c(OC)nc(N)nc21)Oc1ccccc1", "result": "4.35 µM"}
{"SMILES": "Nc1nc2c(ncn2[C@H]2C[C@@]23C[C@H]3CO)c(=O)[nH]1", "result": ">199 µM"}
{"SMILES": "Nc1nc(NC2CC2)c2ncn(C=C3CC3CO)c2n1", "result": ">184 µM"}
{"SMILES": "Nc1nc(NC2CC2)c2ncn(C=C3CC3CO)c2n1", "result": ">184 µM"}

Repeating the final 2 entries:

SMILES | result
Nc1nc(NC2CC2)c2ncn(C=C3CC3CO)c2n1 | >184 µM
Nc1nc(NC2CC2)c2ncn(C=C3CC3CO)c2n1 | >184 µM

CCn is the concentration with n% toxicity to the cells.